Measured values from several laboratories, pooled; numbers as filed in NIAID ChemDB.

Common to all: whole-cell or culture tests; organism: Rhinovirus

ECn is the concentration giving n% inhibition of infection, replication or growth. MIC50, MIC90 and the like: level of inhibition, or share of isolates inhibited. Neighbouring rows are from separate reports. Blank or dashed fields: not listed here.

{"smiles": "CCOC(=O)c1ccc(OCCC2CCN(c3ccc(C)nn3)CC2)cc1", "measure": "EC50", "read by": "neutral red", "cells": "KB", "strain or isolate": "16/60 (ICAM-1 receptor group 4)", "result": "0.016 µM"}
{"smiles": "CCn1c2c(c(=O)c3cc(C(C)C)ccc31)Cc1ccccc1-2", "measure": "EC50", "read by": "cytopathic effect", "cells": "HELA-OHIO", "strain or isolate": "TYPE 1B/B632", "result": "0.3 µg/mL"}
{"smiles": "Cc1cc(CCCCCOc2cc(Cl)c(-c3nnc(C)o3)c(Cl)c2)on1", "measure": "MIC80", "strain or isolate": "serotype 2 1A 1B 6 14 21 22 15 25 30 50 67 89 86 41", "result": "0.46 µg/mL"}
{"smiles": "CCS(=O)(=O)c1ccc(NCc2ccc(Cl)cc2)nc1C#N", "measure": "EC50", "read by": "cytopathic effect", "cells": "HeLa", "strain or isolate": "TYPE 1A", "result": "6.3 µg/mL"}
{"smiles": "CCc1ccc(CCCOc2ccc(-c3noc(C(F)(F)F)n3)c(C)c2)nn1", "measure": "EC80", "read by": "cytopathic effect", "cells": "HeLa", "strain or isolate": "serotypes 3 4 5 9 16 18 38 66 75 67", "result": "0.16 µg/mL"}
{"smiles": "Cc1nc(-c2cc(C)c(OCCCc3cc(C(F)(F)F)no3)c(C)c2)no1", "measure": "EC50", "read by": "cytopathic effect", "cells": "HeLa", "strain or isolate": "Serotype 41", "result": "0.536 µg/mL"}
{"smiles": "CS(=O)(=O)c1ccc(Cc2ccc(Cl)c(Cl)c2)nc1", "measure": "EC50", "read by": "cytopathic effect", "cells": "HeLa", "strain or isolate": "TYPE 4", "result": ">10 µg/mL"}
{"smiles": "CN(C)c1nc(C(F)(F)F)nc2c1ncn2Cc1ccccc1", "measure": "EC50", "read by": "plaque count", "cells": "M-HELA", "strain or isolate": "TYPE 1B", "result": "0.04 µM"}
{"smiles": "Cc1cc(CCCCCOc2c(Cl)cc(C3=NCCO3)cc2Cl)on1", "measure": "EC50", "read by": "plaque count", "cells": "HeLa", "strain or isolate": "TYPE 89", "result": "0.015 µg/mL"}
{"smiles": "Fc1cccc(Cn2cnc3c(Nc4cccc(F)c4)nc(C(F)(F)F)nc32)c1", "measure": "EC50", "read by": "plaque count", "cells": "M-HELA", "strain or isolate": "Serotype 79", "result": "25 µM"}
{"smiles": "CS(=O)(=O)c1ccc(Cc2ccc(Cl)cc2)nc1", "measure": "EC50", "read by": "cytopathic effect", "cells": "HeLa", "strain or isolate": "TYPE 2", "result": "2.5 µg/mL"}
{"smiles": "CS(=O)(=O)c1cccnc1Oc1ccc(C(=O)c2ccccc2)cc1", "measure": "EC50", "read by": "cytopathic effect", "cells": "HeLa", "strain or isolate": "TYPE 1A", "result": ">10 µg/mL"}
{"smiles": "CS(=O)(=O)c1ccc(NCc2ccc(Cl)c(Cl)c2)nc1", "measure": "EC50", "read by": "cytopathic effect", "cells": "HeLa", "strain or isolate": "TYPE 44", "result": "2.5 µg/mL"}
{"smiles": "CCOc1ncnc2cc(OCCC3CCN(c4ccc(C)nn4)CC3)ccc12", "measure": "EC50", "read by": "cytopathic effect", "cells": "MRC-5", "strain or isolate": "Serotype 2", "result": "0.027 µg/mL"}
{"smiles": "CSc1nsc(-c2ccc(OCCCCOc3ccc([N+](=O)[O-])cc3)cc2)c1C#N", "measure": "EC50", "read by": "cytopathic effect", "cells": "HELA-OHIO", "strain or isolate": "Serotype 86 (group A)", "result": ">0.5 µM"}
{"smiles": "CCOC(=O)/C=C/[C@H](C[C@@H]1CCNC1=O)NC(=O)[C@@H](CC(=O)[C@@H](NC(=O)c1cc(C)on1)C(C)C)Cc1ccc(F)cc1", "measure": "EC50", "read by": "cytopathic effect / visual reading", "cells": "OHIO HELA-I", "strain or isolate": "Isolate 4", "result": "0.01 µg/mL"}
{"smiles": "Cc1cc(CCCCCCCOc2ccc(-c3nnc(C)o3)cc2)on1", "measure": "MIC50", "strain or isolate": "serotype 2 1A 1B 6 14 21 22 15 25 30 50 67 89 86 41", "result": "2.3 µg/mL"}
{"smiles": "CSc1nsc(-c2ccc(O)cc2)c1C#N", "measure": "EC50", "read by": "cytopathic effect", "cells": "HELA-OHIO", "strain or isolate": "Serotype 70 (group A)", "result": ">10 µM"}
{"smiles": "CCS(=O)(=O)c1ccc(NCc2ccc(Cl)c(Cl)c2)nc1C#N", "measure": "EC50", "read by": "cytopathic effect", "cells": "HeLa", "strain or isolate": "TYPE 64", "result": "0.6 µg/mL"}
{"smiles": "COc1ccc(-c2snc(SC)c2C#N)cc1", "measure": "EC50", "read by": "cytopathic effect", "cells": "HELA-OHIO", "strain or isolate": "Serotype 45 (group A)", "result": ">12 µM"}
{"smiles": "Nc1ccc(Cn2cnc3c(Nc4cccc(F)c4)nc(C(F)(F)F)nc32)cc1", "measure": "EC50", "read by": "plaque count", "cells": "M-HELA", "strain or isolate": "Serotype 2", "result": "11 µM"}
{"smiles": "Cc1nc(-c2cc(C)c(OCCCc3ccc(C=O)o3)c(C)c2)no1", "measure": "EC50", "read by": "cytopathic effect", "cells": "HeLa", "strain or isolate": "serotypes 3 4 5 9 16 18 38 66 75 67", "result": "0.446 µg/mL"}
{"smiles": "CN(C)c1nc(C(F)(F)F)nc2c1ncn2Cc1ccc([N+](=O)[O-])cc1", "measure": "EC50", "read by": "plaque count", "cells": "M-HELA", "strain or isolate": "Serotype 30", "result": ">8 µM"}
{"smiles": "CS(=O)(=O)c1ccc(Oc2ccc(C(=O)c3ccccc3)cc2)nc1", "measure": "EC50", "read by": "cytopathic effect", "cells": "HeLa", "strain or isolate": "TYPE 4", "result": "3.1 µg/mL"}
{"smiles": "CSc1nsc(-c2ccc(OCCCCOc3ccc(C#N)cc3)cc2)c1C#N", "measure": "EC50", "read by": "cytopathic effect", "cells": "HELA-OHIO", "strain or isolate": "Serotype 39 (group B)", "result": ">2 µM"}
{"smiles": "Cc1cc(CCCCCOc2cc(Cl)c(-c3nnco3)c(Cl)c2)on1", "measure": "MIC80", "strain or isolate": "Serotype 2", "result": "0.41 µg/mL"}
{"smiles": "CCOC(=O)c1ccc(OCCCOc2ccc(-c3snc(SC)c3C#N)cc2)cc1", "measure": "EC50", "read by": "cytopathic effect", "cells": "HELA-OHIO", "strain or isolate": "Serotype 14 (group A)", "result": "0.5 µM"}
{"smiles": "Cc1ccc(N2CCC(CCOc3ccc4nc(C)oc4c3)CC2)nn1", "measure": "EC50", "read by": "cytopathic effect", "cells": "MRC-5", "strain or isolate": "Serotype 1A", "result": "0.179 µg/mL"}
{"smiles": "CSc1nsc(-c2ccc(OCCCCOc3ccccc3)cc2)c1C#N", "measure": "EC50", "read by": "cytopathic effect", "cells": "HELA-OHIO", "strain or isolate": "Serotype 89 (group B)", "result": "2.5 µM"}
{"smiles": "O=C(c1ccccc1)c1ccc(Oc2ccc(S(=O)(=O)Cc3ccccc3)cn2)cc1", "measure": "EC50", "read by": "cytopathic effect", "cells": "HeLa", "strain or isolate": "TYPE 1A", "result": ">10 µg/mL"}
{"smiles": "CCCOc1nc2ccc(OCCC3CCN(c4ccc(C)nn4)CC3)cc2o1", "measure": "EC50", "read by": "cytopathic effect", "cells": "MRC-5", "strain or isolate": "Serotype 2", "result": "0.002 µg/mL"}
{"smiles": "CN(C)c1nc(C(F)(F)F)nc2c1ncn2Cc1ccc(F)cc1", "measure": "EC50", "read by": "plaque count", "cells": "M-HELA", "strain or isolate": "Serotype 31", "result": ">8 µM"}
{"smiles": "Cc1nc(-c2cc(C)c(OCCCc3cc(C4CC4)no3)c(C)c2)no1", "measure": "EC50", "read by": "cytopathic effect", "cells": "HeLa", "strain or isolate": "Serotype 14", "result": "0.039 µg/mL"}
{"smiles": "CSc1nsc(-c2ccc(OCCCOc3ccccc3)cc2)c1C#N", "measure": "EC50", "read by": "cytopathic effect", "cells": "HELA-OHIO", "strain or isolate": "Serotype 39 (group B)", "result": "3.75 µM"}
{"smiles": "CSc1nsc(-c2ccc(OC(C)(C)C)cc2)c1C#N", "measure": "EC50", "read by": "cytopathic effect", "cells": "HELA-OHIO", "strain or isolate": "Serotype 29 (group B)", "result": ">40 µM"}
{"smiles": "COCc1cc(CCCOc2c(Cl)cc(-c3noc(C)n3)cc2Cl)on1", "measure": "EC50", "read by": "cytopathic effect", "cells": "HeLa", "strain or isolate": "Serotype 6", "result": "0.073 µg/mL"}
{"smiles": "CS(=O)(=O)c1ccc(NCc2ccc(Cl)cc2)nc1", "measure": "EC50", "read by": "cytopathic effect", "cells": "HeLa", "strain or isolate": "TYPE 2", "result": "3.1 µg/mL"}
{"smiles": "CN(C)c1nc(C(F)(F)F)nc2c1ncn2Cc1ccc(S(C)(=O)=O)cc1", "measure": "EC50", "read by": "plaque count", "cells": "M-HELA", "strain or isolate": "Serotype 15", "result": ">8 µM"}
{"smiles": "Cc1c(-c2ccccc2)n(-c2cccc(F)c2)c2ccc(C(C)C)cc2c1=O", "measure": "EC50", "read by": "cytopathic effect", "cells": "HELA-OHIO", "strain or isolate": "32/363", "result": "0.02 µg/mL"}
{"smiles": "CCOc1nc2ccc(OCCC3CCN(c4cc(C)c(Cl)nn4)CC3)cc2o1", "measure": "EC50", "read by": "cytopathic effect", "cells": "MRC-5", "strain or isolate": "Serotype 14", "result": "0.039 µg/mL"}
{"smiles": "CC(C)Oc1ccc(Cn2cnc3c(N(C)C)nc(C(F)(F)F)nc32)cc1", "measure": "EC50", "read by": "plaque count", "cells": "M-HELA", "strain or isolate": "TYPE 1B", "result": "1 µM"}
{"smiles": "CCOc1nc2ccc(OCCCC3CCN(c4ccc(Cl)nn4)CC3)cc2o1", "measure": "EC50", "read by": "cytopathic effect", "cells": "MRC-5", "strain or isolate": "Serotype 2", "result": "0.004 µg/mL"}
{"smiles": "CCOC(=O)c1ccc(OCCC2CCN(c3ccc(C)nn3)CC2)cc1", "measure": "EC50", "read by": "cytopathic effect", "cells": "WI-38", "strain or isolate": "Serotype 1A", "result": "<0.1 µg/mL"}
{"smiles": "Cc1ccc(Cn2cnc3c(N(C)C)nc(C(F)(F)F)nc32)c(C)c1", "measure": "EC50", "read by": "plaque count", "cells": "M-HELA", "strain or isolate": "Serotype 5", "result": ">8 µM"}
{"smiles": "Cc1cnnc(CCCOc2cc(C)c(-c3noc(C)n3)c(C)c2)c1", "measure": "EC50", "read by": "cytopathic effect", "cells": "HeLa", "strain or isolate": "serotypes 3 4 5 9 16 18 38 66 75 67", "result": "0.58 µg/mL"}
{"smiles": "CSc1nsc(-c2ccc(OCCCOc3ccc(C#N)cc3)cc2)c1C#N", "measure": "EC50", "read by": "cytopathic effect", "cells": "HELA-OHIO", "strain or isolate": "Serotype 70 (group A)", "result": ">2 µM"}
{"smiles": "Cc1cc(OCCCc2ccc(Br)nn2)cc(C)c1-c1noc(C(F)F)n1", "measure": "EC80", "read by": "cytopathic effect", "cells": "HeLa", "strain or isolate": "serotypes 3 4 5 9 16 18 38 66 75 67", "result": "0.05 µg/mL"}
{"smiles": "Cc1c(-c2ccccc2)n(-c2ccc(F)cc2)c2ccc(C(C)C)cc2c1=O", "measure": "EC50", "read by": "cytopathic effect", "cells": "HELA-OHIO", "strain or isolate": "TYPE 89", "result": "0.011 µg/mL"}

The first 6 rows once more:

| smiles | measure | read by | cells | strain or isolate | result |
|---|---|---|---|---|---|
| CCOC(=O)c1ccc(OCCC2CCN(c3ccc(C)nn3)CC2)cc1 | EC50 | neutral red | KB | 16/60 (ICAM-1 receptor group 4) | 0.016 µM |
| CCn1c2c(c(=O)c3cc(C(C)C)ccc31)Cc1ccccc1-2 | EC50 | cytopathic effect | HELA-OHIO | TYPE 1B/B632 | 0.3 µg/mL |
| Cc1cc(CCCCCOc2cc(Cl)c(-c3nnc(C)o3)c(Cl)c2)on1 | MIC80 |  |  | serotype 2 1A 1B 6 14 21 22 15 25 30 50 67 89 86 41 | 0.46 µg/mL |
| CCS(=O)(=O)c1ccc(NCc2ccc(Cl)cc2)nc1C#N | EC50 | cytopathic effect | HeLa | TYPE 1A | 6.3 µg/mL |
| CCc1ccc(CCCOc2ccc(-c3noc(C(F)(F)F)n3)c(C)c2)nn1 | EC80 | cytopathic effect | HeLa | serotypes 3 4 5 9 16 18 38 66 75 67 | 0.16 µg/mL |
| Cc1nc(-c2cc(C)c(OCCCc3cc(C(F)(F)F)no3)c(C)c2)no1 | EC50 | cytopathic effect | HeLa | Serotype 41 | 0.536 µg/mL |